Experimental data from patent publication US20250367282A1, “POLYCATION CARRIER PARTICLE” (ALLARTA LIFE SCIENCE INC., priority 2022, published 2025).

Test: Hydrolysis of DXL monitored by 1H NMR

For `C=CC(=O)OCCN(C)CCOC(=O)C=C`, the “DXL hydrolyzed (hydrolysis of one of the ester groups)” value (100 mM phosphate buffered D2O, pH 7.3, room temperature (22° C.), after 1 day) was “about 31%”, the “pseudo first-order rate constant (k) of ester hydrolysis” value (one ester group, phosphate buffered D2O, pH 7.3, 22° C.) was 0.0151 h⁻¹ and the “hydrolysis rate relative to PDMAEA (times faster)” value (versus PDMAEA at pH 7) was “about 1.8 times”.
